A mixed list of measured activities; the numbers were collected in NIAID ChemDB.

All rows: whole-cell or culture tests; organism: Rhinovirus; measure: inhibition

For "inactive" no cut-off is given. An empty or dashed field is not shown. Percent inhibition refers to the dose given; in toxicity tests it is the harm to the cells. Two numbers with a dash give a range or band. Neighbouring rows are from separate reports.

| compound | read by | cells | tested at | strain | value |
|---|---|---|---|---|---|
| O=S(=O)(O)c1cc(O)c2c(O)cc(S(=O)(=O)O)cc2c1 | cytopathic effect | Human embryonic lung cells | 50 µg/mL |  | 10% |
| COc1ccc(Cn2cnc3c(N(C)C)nc(C(F)(F)F)nc32)cc1C | plaque count | M-HELA | 8 µM | Serotype 13 | 12% |
| O=C(Oc1c(-c2ccc(Cl)c(Cl)c2)oc2ccccc2c1=O)c1cc(OCc2ccccc2)c(OCc2ccccc2)c(OCc2ccccc2)c1 | plaque count | HeLa | 6.25 µM | Serotype 1B | 23% |
| O=C(/C=C(\O)c1ccccc1O)/C=C/c1ccc([N+](=O)[O-])cc1 | plaque count | HeLa | 6.25 µM | Serotype 1B | 25% |
| O=S(=O)([O-])c1ccc(O)cc1 | cytopathic effect | Human embryonic lung cells | 5 µg/mL |  | 10% |
| CCN(c1cccc(F)c1)c1nc(C(F)(F)F)nc2c1ncn2Cc1cccc(F)c1 | plaque count | M-HELA | 10 µM | Serotype 4 | 38% |
| CN(C)c1nc(C(F)(F)F)nc2c1ncn2Cc1ccc(Cl)c(NC=O)c1 | plaque count | M-HELA | 8 µM | Serotype 5 | 36% |
| O=S(=O)([O-])c1cc(S(=O)(=O)[O-])c2cc(NS(=O)(=O)c3ccccc3)ccc2c1 | cytopathic effect | Human embryonic lung cells | 5 µg/mL |  | 0% |
| COc1nc2c(N(C)C)nc(C(F)(F)F)nc2n1Cc1ccc(C)cc1 | plaque count | M-HELA | 8 µg/mL | TYPE 1B | 17% |
| Cc1cc(CCCCCCCOc2ccc(C3=NCCO3)cc2)on1 |  |  | 2.475 µg/mL | 17 serotypes | 71% |
| COc1cc(C(=O)Oc2c(-c3ccc(Cl)cc3)oc3ccccc3c2=O)ccc1O | plaque count | HeLa | 0.49 µM | Serotype 1B | inactive |
| Cc1cccc(C2=CCN(c3ccc(Br)nn3)CC2)c1 |  |  | 1.4 µg/mL | 100 serotypes | 71% |
| CC(=O)Oc1ccc(/C=C/C(=O)Oc2c(-c3ccc(Cl)cc3)oc3ccccc3c2=O)cc1OC(C)=O | plaque count | HeLa | 1.91 µM | Serotype 14 | inactive |
| Cc1ccc(Cn2cnc3c(N(C)C)nc(C(F)(F)F)nc32)c(C)c1 | plaque count | M-HELA | 8 µM | Serotype 19 | 36% |
| COc1cc(/C=C/C(=O)Oc2c(-c3ccc(Cl)cc3)oc3ccccc3c2=O)ccc1OC(C)=O | plaque count | HeLa | 1.56 µM | Serotype 14 | 10% |
| Fc1cccc(Cn2cnc3c(Nc4cccc(F)c4)nc(C(F)(F)F)nc32)c1 | plaque count | M-HELA | 2.5 µM | Serotype 6 | 21% |
| COc1cc(C(=O)Oc2c(-c3ccc(Cl)c(Cl)c3)oc3ccccc3c2=O)cc(OC)c1OC(C)=O | plaque count | HeLa | 6.25 µM | Serotype 14 | 30% |
| Cc1ccccc1Cn1cnc2c(N(C)C)nc(C(F)(F)F)nc21 | plaque count | M-HELA | 8 µM | Serotype 13 | 33% |
| O=C1C(c2[nH]c3ccc(S(=O)(=O)O)cc3c2O)=Nc2ccc(S(=O)(=O)O)cc21 | cytopathic effect | Human amnion AV3 cells | 10 µg/mL |  | 17% |
| N#Cc1cc([N+](=O)[O-])ccc1Oc1ccc(Cl)c(Cl)c1 |  | VERO | 0.39 µg/mL | TYPE 1A | 37% |
| COc1cc(C(=O)Oc2c(-c3ccc(Cl)c(Cl)c3)oc3ccccc3c2=O)cc(OC)c1O | plaque count | HeLa | 1.56 µM | Serotype 1B | 23% |
| Cc1ccc(Cn2cnc3c(N(C)C)nc(C(F)(F)F)nc32)cc1 | plaque count | M-HELA | 8 µM | TYPE 5 | 18% |
| O=C(O)Cc1csc(/N=C2\SC[C@@H]3Cc4ccccc4CN23)n1 | cytopathic effect | MRC-5 | 1.5 µg/mL | Serotype 43 | 80–100% |
| CN(C)c1nc(C(F)(F)F)nc2c1ncn2Cc1ccccc1 | plaque count | M-HELA | 8 µM | Serotype 30 | 19% |
| O=S(=O)(O)c1cc(O)c2c(O)c(N=Nc3ccccc3)c(S(=O)(=O)O)cc2c1 | cytopathic effect | Human embryonic lung cells | 50 µg/mL |  | 90% |
| CN(C)c1nc(C(F)(F)F)nc2c1ncn2Cc1ccc([N+](=O)[O-])cc1 | plaque count | M-HELA | 8 µM | Serotype 13 | 13% |
| CCCCCCCCCCCCCCOc1ccc(C(C)=O)o1 |  |  | 2 µg/mL | 100 serotypes | 71% |
| O=C(/C=C(\O)c1ccccc1O)/C=C/c1ccc(Cl)cc1 | plaque count | HeLa | 12.5 µM | Serotype 14 | 26% |
| CN(C)c1nc(C(F)(F)F)nc2c1ncn2Cc1ccc(F)cc1 | plaque count | M-HELA | 8 µM | Serotype 2 | 27% |
| Cc1ccc(/C=C/c2cc(=O)c3ccccc3o2)cc1 | plaque count | HeLa | 6.25 µM | Serotype 14 | 10% |
| Nc1ccc2cc([N+](=O)[O-])cc(S(=O)(=O)[O-])c2c1 | cytopathic effect | Human amnion AV3 cells | 50 µg/mL |  | 0% |
| CN(C)c1nc(C(F)(F)F)nc2c1ncn2Cc1ccccc1Cl | plaque count | M-HELA | 8 µM | Serotype 13 | 24% |
| COc1cc(C(=O)Oc2c(-c3ccc(Cl)cc3)oc3ccccc3c2=O)cc(OC)c1O | plaque count | HeLa | 0.54 µM | Serotype 1B | inactive |
| Nc1ccc2cc(S(=O)(=O)O)cc(S(=O)(=O)O)c2c1 | cytopathic effect | Human embryonic lung cells | 10 µg/mL |  | 55% |
| CN(C)c1nc(C(F)(F)F)nc2c1ncn2Cc1ccc(S(C)(=O)=O)cc1 | plaque count | M-HELA | 8 µM | Serotype 18 | 29% |
| Nc1ccc2c(O)cc(S(=O)(=O)[O-])cc2c1S(=O)(=O)[O-] | cytopathic effect | Human embryonic lung cells | 50 µg/mL |  | 70% |
| Cc1cccc(C2=CCN(c3ccc(Cl)nn3)CC2)c1 |  |  | 0.375 µg/mL | 100 serotypes | 53% |

Repeating the final 5 entries:

compound,read by,cells,tested at,strain,value
COc1cc(C(=O)Oc2c(-c3ccc(Cl)cc3)oc3ccccc3c2=O)cc(OC)c1O,plaque count,HeLa,0.54 µM,Serotype 1B,inactive
Nc1ccc2cc(S(=O)(=O)O)cc(S(=O)(=O)O)c2c1,cytopathic effect,Human embryonic lung cells,10 µg/mL,,55%
CN(C)c1nc(C(F)(F)F)nc2c1ncn2Cc1ccc(S(C)(=O)=O)cc1,plaque count,M-HELA,8 µM,Serotype 18,29%
Nc1ccc2c(O)cc(S(=O)(=O)[O-])cc2c1S(=O)(=O)[O-],cytopathic effect,Human embryonic lung cells,50 µg/mL,,70%
Cc1cccc(C2=CCN(c3ccc(Cl)nn3)CC2)c1,,,0.375 µg/mL,100 serotypes,53%